A mixed list of measured activities; the numbers were collected in NIAID ChemDB.

Common to all: target-level tests; agent: HIV-1; protein: Protease; measure: inhibition

An empty or dashed field is not shown. Percent inhibition refers to the dose given; in toxicity tests it is the harm to the cells. Rows are shuffled and stem from different studies.

compound	read by	dose	value
CC[C@H](C)[C@H](NC(=O)OC(C)(C)C)C(=O)N[C@H]1CC[C@@H](CC(=O)N[C@@H](CC(C)C)C(=O)OC)[C@@H]1O	absorbance	10 µM	24%
O=C(c1ccccc1)N(Cc1cc2ccccc2[nH]c1=O)C1CC1	substrate cleavage / fluorescence	20 µM	-21.1%
CC[C@H](C)[C@H](NC(=O)OC(C)(C)C)C(=O)N[C@H]1CC[C@@H](CC(=O)N[C@H](C(=O)OC)C(C)C)[C@@H]1O	absorbance	10 µM	15%
CCOC(=O)[C@@]1(C)CC[C@]2(C)CC[C@]3(C)C(=CC(=O)[C@@H]4[C@@]5(C)CC/C(=N\OCC6(C)COC6)C(C)(C)[C@@H]5CC[C@]43C)[C@@H]2C1	substrate cleavage / fluorescence	1000 µg/mL	38.9%
COC(=O)[C@H](CC(C)C)NC(=O)C[C@@H]1CC[C@H](NC(=O)[C@H](C)NC(=O)OC(C)(C)C)[C@H]1O	absorbance	10 µM	13%
CC(C)(C)NC(=O)NCC(O)CNC(=O)NC(C)(C)C	-	10 µM	8%
CCOC(=O)[C@@]1(C)CC[C@]2(C)CC[C@]3(C)C(=CC(=O)[C@@H]4[C@@]5(C)CC/C(=N\OCC6CCOCC6)C(C)(C)[C@@H]5CC[C@]43C)[C@@H]2C1	substrate cleavage / fluorescence	1000 µg/mL	46.8%
COC(=O)[C@@H](NC(=O)C[C@H]1CC[C@H](O)[C@H]1NC(=O)[C@H](C)NC(=O)OC(C)(C)C)C(C)C	absorbance	10 µM	0%
CCOC(=O)[C@@]1(C)CC[C@]2(C)CC[C@]3(C)C(=CC(=O)[C@@H]4[C@@]5(C)CC/C(=N\OCc6cc(C)nn6C)C(C)(C)[C@@H]5CC[C@]43C)[C@@H]2C1	substrate cleavage / fluorescence	1000 µg/mL	36.2%
COc1cccc2cc(CN(C(=O)c3ccccc3)C3CCCC3)c(=O)[nH]c12	substrate cleavage / fluorescence	20 µM	6.3%
CCOC(=O)[C@@]1(C)CC[C@]2(C)CC[C@]3(C)C(=CC(=O)[C@@H]4[C@@]5(C)CC/C(=N\OCc6ccc(Cl)cc6)C(C)(C)[C@@H]5CC[C@]43C)[C@@H]2C1	substrate cleavage / fluorescence	1000 µg/mL	11.8%
COc1cc(O)cc(O)c1C(=O)CCc1ccccc1	HPLC	100 µM	2.7%
C[C@@H]1CC[C@]2(C(=O)O[C@@H]3O[C@H](CO)[C@@H](O)[C@H](O)[C@H]3O)CC[C@@H]3C(=CC[C@H]4[C@@]3(C)CC[C@H]3C(C)(C)[C@H](O)[C@H](O)C[C@]43C)[C@@H]2[C@]1(C)O	HPLC	100 µM	37.3%
CC[C@H](C)[C@H](NC(C)=O)C(=O)NCC(=O)N[C@@H](CC(C)C)C(=O)N[C@H](C(=O)N[C@@H](CC(C)C)C(=O)N[C@@H](CC(N)=O)C(=O)N[C@@H](Cc1ccccc1)C(=O)O)[C@@H](C)O	HPLC	266 µg/mL	18%
COc1ccc2[nH]c(=O)c(CNC3CCCCC3)cc2c1	substrate cleavage / fluorescence	20 µM	-44.7%
O=C(NC(CO)c1ccccc1)[C@H](Cc1ccccc1)CS(=O)C[C@@H](Cc1ccccc1)C(=O)N[C@H](CO)c1ccccc1	-	10 µM	47%
CC[C@@H](C)[C@H](NC(=O)COc1cccc2ccccc12)C(=O)N[C@@H](Cc1ccccc1)[C@H](O)C(=O)N1CSC[C@H]1C(=O)NC(C)(C)C	-	0.05 µM	93%
CC(C)C[C@H](NC(=O)[C@@H](NC(=O)[C@@H](N)CC(C)C)[C@@H](C)O)C(=O)N[C@@H](CC(N)=O)C(=O)N[C@@H](Cc1ccccc1)C(=O)O	HPLC	400 µg/mL	14%
COC(=O)[C@@H](NC(=O)C[C@@H]1CC[C@@H](O)[C@@H]1NC(=O)[C@H](C)NC(=O)OC(C)(C)C)C(C)C	absorbance	10 µM	10%
COc1ccc2[nH]c(=O)c(CN(C(=O)c3ccccc3)C3CCCC3)cc2c1	substrate cleavage / fluorescence	20 µM	-20%
CCOC(=O)[C@H](CC(C)C)NC(=O)[C@H](Cc1ccccc1)NC(=O)[C@H](O)[C@H](Cc1ccccc1)NC(=O)OC(C)(C)C	HPLC	70 µM	0%
O=C(CCc1ccccc1)c1c(O)cc(O)cc1O	HPLC	100 µM	7.5%
CC[C@H](C)[C@H](NC(=O)[C@@H]1CCCN1C(=O)[C@@H](O)[C@H](Cc1ccccc1)NC(=O)[C@H](CO)NC(=O)CCc1ccccc1)C(=O)N[C@H](C(N)=O)C(C)C	-	5 µM	78.5%
COc1ccc2[nH]c(=O)c(CNC3CC3)cc2c1	substrate cleavage / fluorescence	20 µM	0.5%
O=C(NC(CO)c1ccccc1)[C@@H](CSC[C@@H](Cc1ccccc1)C(=O)N[C@H](CO)c1ccccc1)Cc1ccccc1	-	10 µM	41%
CC(C)(C)NC(=O)N(Cc1ccccc1)C[C@H](O)[C@@H](O)CN(Cc1ccccc1)C(=O)NC(C)(C)C	-	10 µM	78%
COC(=O)[C@@H](NC(=O)C[C@@H]1CC[C@H](NC(=O)[C@H](Cc2ccccc2)NC(=O)OC(C)(C)C)[C@H]1O)C(C)C	absorbance	10 µM	0%
CC[C@H](C)[C@H](NC(=O)[C@H](CCC(N)=O)NC(=O)[C@@H]1CCCN1C(C)=O)C(=O)N[C@H](C(=O)N[C@@H](CC(C)C)C(=O)O)[C@@H](C)O	HPLC	800 µg/mL	10%
CC[C@@H](C)[C@H](NC(=O)[C@@H]1CCCN1C(=O)[C@@H](O)[C@H](Cc1ccccc1)NC(=O)[C@H](CC(N)=O)NC(=O)CCc1ccccc1)C(=O)NCC1CCCCC1	-	5 µM	86.8%
CC(C)C[C@H](NC(=O)C[C@@H]1CC[C@H](NC(=O)[C@H](Cc2ccccc2)NC(=O)[C@@H](NC(=O)OCc2ccccc2)C(C)C)[C@H]1O)C(=O)NC(C)(C)C	absorbance	10 µM	0%
CC(C)[C@H](NC(=O)COc1cccc2cnccc12)C(=O)N[C@@H](Cc1ccccc1)[C@H](O)C(=O)N1CCC[C@H]1C(=O)NC(C)(C)C	-	0.05 µM	69%
CCCC(CCC)C(=O)N1C[C@@H](O)[C@@H](Cc2ccccc2)N(Cc2ccc(O)cc2)C(=O)N1Cc1ccc(O)cc1	fluorescence	0.0005 µM	43%
COC(=O)[C@H](CC(C)C)NC(=O)C[C@@H]1CC[C@@H](O)[C@@H]1NC(=O)[C@H](C)NC(=O)OC(C)(C)C	absorbance	10 µM	19%
O=c1[nH]c2ccccc2cc1CNC1CCCC1	substrate cleavage / fluorescence	20 µM	-63%
CCOC(=O)[C@@]1(C)CC[C@]2(C)CC[C@]3(C)C(=CC(=O)[C@@H]4[C@@]5(C)CC/C(=N\OCc6cnc(Cl)s6)C(C)(C)[C@@H]5CC[C@]43C)[C@@H]2C1	substrate cleavage / fluorescence	1000 µg/mL	20.9%
O=c1[nH]c2ccccc2cc1CNC1CC1	substrate cleavage / fluorescence	20 µM	-4.5%
C=CC[C@H](NC(=O)[C@H](Cc1ccccc1)NS(=O)(=O)N1CCOCC1)C(=O)N[C@@H](CC1CCCCC1)[C@@H](O)C[C@H](C(=O)NCCCC)C(C)C	HPLC	0.1 µM	66%
COc1ccc2[nH]c(=O)c(CN(C(=O)c3ccccc3)C3CC3)cc2c1	substrate cleavage / fluorescence	20 µM	-7.4%
CC(C)CN(CC(O)CN(CC(C)C)C(=O)NC(C)(C)C)C(=O)NC(C)(C)C	-	10 µM	25%
CNC(=O)[C@@H](NC(=O)[C@@H](CSC[C@@H](Cc1ccccc1)C(=O)N[C@H](C(=O)NC)C(C)C)Cc1ccccc1)C(C)C	-	10 µM	87%
O=c1c(O[C@@H]2O[C@H](CO)[C@H](O)[C@H](O)[C@H]2O)c(-c2ccc(O)c(O)c2)oc2cc(O)cc(O)c12	HPLC	100 µM	20.9%
O=C(c1ccccc1)N(Cc1cc2ccccc2[nH]c1=O)C1CCCCC1	substrate cleavage / fluorescence	20 µM	-17.9%
CC(C)(CO)NC(=O)[C@@H]1CSCN1C(=O)[C@@H](O)[C@H](Cc1ccccc1)NC(=O)[C@H](CS(C)(=O)=O)NC(=O)COc1cccc2ccccc12	-	0.05 µM	91.8%
CC[C@H](C)[C@H](NC(=O)OC(C)(C)C)C(=O)N[C@H]1[C@@H](CC(=O)N[C@H](C(=O)OC)C(C)C)CC[C@@H]1O	absorbance	10 µM	18%

The last 3 rows once more:

compound | read by | dose | value
O=C(c1ccccc1)N(Cc1cc2ccccc2[nH]c1=O)C1CCCCC1 | substrate cleavage / fluorescence | 20 µM | -17.9%
CC(C)(CO)NC(=O)[C@@H]1CSCN1C(=O)[C@@H](O)[C@H](Cc1ccccc1)NC(=O)[C@H](CS(C)(=O)=O)NC(=O)COc1cccc2ccccc12 | - | 0.05 µM | 91.8%
CC[C@H](C)[C@H](NC(=O)OC(C)(C)C)C(=O)N[C@H]1[C@@H](CC(=O)N[C@H](C(=O)OC)C(C)C)CC[C@@H]1O | absorbance | 10 µM | 18%